A mixed list of measured activities; the numbers were collected in NIAID ChemDB.

Common to all: tests in culture; organism: HIV-1; read by: cytopathic effect / XTT; read-out: EC50

ECn: concentration that inhibits the pathogen or its effect by n%. Blank or dashed fields: not listed here. Lines come from different laboratories, so protocols vary.

structure,mutations,strain,cell line,value
CC=CCOc1cc(NC(=S)c2ccoc2C)ccc1OC,RT-Y181C,NL4-3,CEM + CEM-SS,1.4 µM
CC(NC(=O)c1ccccc1SSc1ccccc1C(=O)NC(C)C(=O)O)C(=O)O,,IIIB,CEM,35.3 µM
CCCc1cc(=O)oc2c3c(c4c(c12)OC(C)(C)CC4)O[C@@H](C)[C@H](C)[C@@H]3O,,RF,CEM + CEM-SS,0.6 µM
O=C(O)CCC[C@H](NC(=O)c1ccccc1SSc1ccccc1C(=O)N[C@@H](CCCC(=O)O)C(=O)O)C(=O)O,,IIIB,CEM,>100 µM
CC(C)=CCOc1cc(NC(=S)c2ccoc2C)ccc1Cl,RT-Y181C K101E,UC10-resistant (RT Y181C K101E),CEM + CEM-SS,>2 µM
CCC(NC(=O)c1ccccc1SSc1ccccc1C(=O)NC(CC)C(=O)O)C(=O)O,,IIIB,CEM,25 µM
CN1N=C(N)c2cn([C@@H]3O[C@H](COP(=O)(O)O)[C@@H](O)[C@H]3O)c3ncnc1c23,,PM16,CEM + CEM-SS,0.11 µM
Cc1occc1C(=S)Nc1ccc(Cl)c(C(=O)OCC2CC2)c1,RT-V106A,NL4-3,CEM + CEM-SS,1.1 µM
CC(C)C[C@@H](/C=C/C(=O)O)NC(=O)c1ccccc1SSc1ccccc1C(=O)N[C@H](/C=C/C(=O)O)CC(C)C,,IIIB,CEM,3.7 µM
C=CCO/N=C/c1cc(NC(=S)c2ccoc2C)ccc1Cl,RT-D67N K70R L100I T215Y K219Q,4xAZT/L100I(RT-D67N K70R T215Y K219Q L100I),CEM + CEM-SS,1.3 µM
CC(C)=CCOc1cc(NC(=S)c2ccsc2C)ccc1Cl,RT-A98G,NL4-3 (RT A98G),CEM + CEM-SS,0.009 µM
Cc1occc1C(=S)Nc1ccc(Cl)c(C(=O)OC(C)C)c1,RT-K101E,NL4-3,CEM + CEM-SS,0.7 µM
CCCc1cc(=O)oc2c3c(c4c(c12)OC(C)(C)CC4)O[C@H](C)[C@@H](C)C3=O,,SK1,CEM + CEM-SS,0.62 µM
CC(C)C(NC(=O)c1ccccc1SSc1ccccc1C(=O)NC(C(=O)O)C(C)C)C(=O)O,,IIIB,CEM,12 µM
Cc1occc1C(=S)Nc1ccc(Cl)c(C(=O)OCC(F)(F)F)c1,,IIIB,CEM + CEM-SS,0.05 µM